Article PMC10619443, “Structural snapshots of Mycobacterium tuberculosis enolase reveal dual mode of 2PG binding and its implication in enzyme catalysis” (IUCrJ, 2023)

System: C=C(OP(=O)(O)O)C(=O)O
Test: purified protein
Conditions: pH 7.5; 25.0 °C

Substance: MtEno (Mycobacterium tuberculosis H37Rv)
- Km: 495.7 ± 45.27 µM
